# Literature values in patent publication US10794912B2 (priority 2017, dated 2020).
# Settings: 110° C. for 1 h
smiles,measurement,value
C[C@H]1CCCC(=O)CCC/C=C/c2cc(O)cc(O)c2C(=O)O1,heat resistance,can only be completely destroyed after being treated at 110 °C for 1 h
